Results of unrelated studies side by side (data: NIAID ChemDB).

All rows: growth or infection tests; agent: Candida albicans

A number after MIC or MFC names an inhibition level or a share of isolates.

smiles,read by,measure,strain,conditions,result
COc1c(O)cc2oc(-c3ccccc3)cc(=O)c2c1O,,MIC,,,500 µg/mL
COc1ccc(C(OC)C(O)c2cc(OC)c(OC)c(OC)c2)cc1,broth dilution,MIC,ATCC 2091,,50 µg/mL
C=C1C2CCC(C2)C1(C)C,broth dilution,MIC50,ATCC 90028,,4000 µg/mL
N=C(N)c1ccc2c(c1)[nH]c1cc(C(=N)N)ccc12,,MIC,A39,,0.78 µg/mL
CCOC(=O)C1C(c2ccc(C)cc2)CC(c2ccc(Cl)cc2)=CC12NCCN2,,MIC,CaCYP51,,25 µg/mL
CSc1ccc2c(c1)N(CCC1CCCCN1C)c1ccccc1S2,broth dilution,MIC,,,64 µg/mL
CO[C@H]1C[C@H](O[C@H]2CC[C@@]3(C)C(=CC[C@@H]4[C@@H]3CC[C@]35C(=O)O[C@H](C)[C@H]3C(=O)C[C@]45O)C2)O[C@H](C)[C@H]1O[C@H]1C[C@H](OC)[C@H](O[C@@H]2C[C@@H](OC)[C@@H](O)[C@H](C)O2)[C@@H](C)O1,broth dilution / turbidity,MIC,ATCC 2091,,100 µg/mL
N#CC1=C(N)N(c2nc(-c3ccccc3)cs2)C2=C(C(=O)CCC2)C1c1cc2ccccc2nc1F,broth dilution,MIC,MTCC 227,,500 µg/mL
Oc1ccc(C(c2cc(Br)c(O)cc2O)c2cc(Br)c(O)cc2O)cc1,,EC50,ATCC 10231,,25 µg/mL
Nc1[nH]c(=O)ncc1F,,MIC,ATCC 90028,,0.5 µg/mL
COc1ccc(OC)c2c1CCc1[se]nnc1-2,,MIC,,,12.5 µg/mL
O=Cc1ccccc1O,XTT,MIC,ATCC 90028,biofilm,125 µg/mL
CC12CCC(CC1)C(C)(C)O2,broth dilution,MIC50,ATCC 90028,,>8000 µg/mL
C=C(Cl)CN1C[C@H](OCC23C[C@@H]4[C@H](C)CC[C@H]4C4(C=O)CC2C=C(C(C)C)C34C(=O)O)O[C@H](C)C1,,MIC50,22 isolates,,0.016 µg/mL
O=Cc1c(O)ccc2ccc(=O)oc12,broth dilution,MIC,,,14000 µM
CCCOc1cc2ccnc(CCC)c2cc1OCCC,,MIC,IFO1061,,>500 µg/mL
COc1ccc2nc(F)c(C3C(C#N)=C(N)N(c4nc(-c5ccc(Cl)cc5)cs4)C4=C3C(=O)CCC4)cc2c1,broth dilution,MIC,MTCC 227,,500 µg/mL
CC(=O)N1CCN(c2ccc(OC[C@H]3CO[C@](Cn4ccnc4)(c4ccc(Cl)cc4Cl)O3)cc2)CC1,,MIC,Isogenic isolate 6 MDR1 (25X),,≤0.008 µg/mL
C/C=C/c1ccc2oc(-c3ccc(O)c(OC)c3)c(C)c2c1,,MIC,,,<256 µg/mL
O=C/C=C/c1ccccc1,broth dilution,MIC99.9,ATCC 90028,,250 µg/mL
CCOC(=O)C1C(c2ccc(C)cc2)CC(c2ccccc2)=CC12NCCN2,,MIC,CaCYP51,,12.5 µg/mL
C[C@H]1O[C@@H](Oc2ccc(-c3coc4cc(O[C@@H]5O[C@H](C)[C@H](O)[C@H](O)[C@@H]5O)ccc4c3=O)cc2)[C@@H](O)[C@@H](O)[C@H]1O,,MIC,B02630,,7 µg/mL
CCOC(=O)C1=C(N)N(c2nc(-c3ccc(Cl)cc3)cs2)C2=C(C(=O)CCC2)C1c1cc2ccccc2nc1F,broth dilution,MIC,MTCC 227,,100 µg/mL
C[C@@H]1[C@H](O)[C@@H](C)/C=C/C=C/CC/C=C/C=C/C=C/C=C/C(O[C@H]2O[C@H](C)[C@@H](O)[C@H](N)[C@@H]2O)CC2O[C@](O)(CC(O)C(O)CCC(O)CC(O)CC(O)CC(=O)O[C@H]1C)CC(O)C2C(=O)O,broth dilution,MIC,ATCC 10231,,10 µg/mL
CCC(C)n1ncn(-c2ccc(N3CCN(c4ccc(OC[C@H]5CO[C@](Cn6cncn6)(c6ccc(Cl)cc6Cl)O5)cc4)CC3)cc2)c1=O,,MIC90,206 isolates,,0.25 µg/mL
c1ccc2c(c1)CCc1[se]nnc1-2,,MIC,,,12.5 µg/mL
COc1cc2c(c3oc(=O)c4c(c13)CCC4=O)[C@H]1CCO[C@H]1O2,agar,MIC,,,>100 µM
CO[C@H]1C[C@H](O[C@H]2CC[C@@]3(C)C(=CC[C@@H]4[C@@H]3CC[C@]35C(=O)O[C@H](C)[C@H]3C(=O)C[C@]45O)C2)O[C@H](C)[C@H]1O,broth dilution / turbidity,MIC,ATCC 2091,,>100 µg/mL
CCOC(=O)C1C(c2ccccc2)CC(c2ccccc2)=CC12NCCN2,,MIC,CaCYP51,,100 µg/mL
CO[C@H]1C[C@H](O[C@H]2CC[C@@]3(C)C(=CC[C@H]4C5=CC(=O)[C@@H]6[C@@H](C)OC(=O)[C@]56CC[C@@H]43)C2)O[C@H](C)[C@H]1O[C@H]1C[C@H](OC)[C@H](O[C@@H]2C[C@@H](OC)[C@@H](O[C@@H]3O[C@H](CO[C@@H]4O[C@H](CO)[C@@H](O)[C@H](O)[C@H]4O)[C@@H](O)[C@H](O)[C@H]3O)[C@H](C)O2)[C@@H](C)O1,broth dilution / turbidity,MIC,ATCC 2091,,>100 µg/mL
C1CCNCC1,broth dilution,MIC99.9,ATCC 90028,,1000 µg/mL
Nn1c(Nc2ccccc2)nc2sc3c(c2c1=O)CCC3,,MIC,,,12.5 µg/mL
C[C@@H]1[C@H](O)[C@@H](C)/C=C/C=C/C=C/C=C/C=C/C=C/C=C/[C@H](O[C@@H]2O[C@H](C)[C@@H](O)[C@H](N)[C@@H]2O)C[C@@H]2O[C@](O)(C[C@@H](O)C[C@@H](O)[C@H](O)CC[C@@H](O)C[C@@H](O)CC(=O)O[C@H]1C)C[C@H](O)[C@H]2C(=O)O,,MIC,AY93025,,1.5 µg/mL
C[C@H]1[C@H](O)[C@@H](C)/C=C/C=C/C=C/C=C/C=C/C=C/C=C/[C@H](O[C@@H]2O[C@H](C)[C@@H](O)[C@H](N)[C@@H]2O)C[C@@H]2O[C@](O)(C[C@@H](O)C[C@@H](O)CC[C@H](O)[C@@H](O)C[C@@H](O)CC(=O)O[C@H]1C)C[C@H](O)[C@H]2C(=O)O,broth dilution / visual reading,MIC,ATCC 18804,,0.39 µg/mL
COc1ccccc1O,XTT,MIC,ATCC 90028,biofilm,1000 µg/mL
CO[C@H]1C[C@H](O[C@H]2[C@@H](OC)C[C@H](O[C@H]3[C@@H](OC)C[C@H](O[C@H]4CC[C@@]5(C)C(=CC[C@H]6C7=CC(=O)[C@@H]8[C@@H](C)OC(=O)[C@]78CC[C@@H]65)C4)O[C@@H]3C)O[C@@H]2C)O[C@H](C)[C@H]1O,broth dilution / turbidity,MIC,ATCC 2091,,>100 µg/mL
CC(=O)N1CCN(c2ccc(OC[C@H]3CO[C@](Cn4ccnc4)(c4ccc(Cl)cc4Cl)O3)cc2)CC1,,MIC,ATCC 24433,,0.125 µg/mL
CCCc1nccc2cc(O)c(O)cc12,,MIC,IFO1061,,>500 µg/mL
CCOC(=O)C1=C(N)N(c2nc(-c3ccccc3O)cs2)C2=C(C(=O)CCC2)C1c1cc2cc(OC)ccc2nc1F,broth dilution,MIC,MTCC 227,,100 µg/mL
CCOC(=O)C1C(c2ccc(F)cc2)CC(c2ccccc2)=CC12NCCN2,,MIC,,,200 µg/mL
CCCCCC1CC(O)CC(=O)O1,broth dilution,MIC,ATCC 10231,,93.7 µg/mL
CN(C)CC/C=C1/c2ccccc2Sc2ccc(Cl)cc21,broth dilution,EC50,,,64 µg/mL
CCOC(=O)C1C(c2ccc(Cl)cc2)CC(c2ccccc2)=CC12NCCN2,,MIC,CaCYP51,,50 µg/mL
CCOC(=O)C1=C(N)N(c2nc(-c3ccc(Cl)cc3)cs2)C2=C(C(=O)CCC2)C1c1cc2cc(Cl)ccc2nc1F,broth dilution,MIC,MTCC 227,,500 µg/mL
O=Cc1ccco1,broth dilution,MIC50,ATCC 90028,,500 µg/mL
CCCC1c2cc(O)c(O)cc2CCN1CCC,,MIC,IFO1061,,>500 µg/mL
C[C@H]1[C@H](O)[C@@H](C)/C=C/C=C/C=C/C=C/C=C/C=C/C=C/[C@H](O[C@@H]2O[C@H](C)[C@@H](O)[C@H](N)[C@@H]2O)C[C@@H]2O[C@](O)(C[C@@H](O)C[C@@H](O)CC[C@H](O)[C@@H](O)C[C@@H](O)CC(=O)O[C@H]1C)C[C@H](O)[C@H]2C(=O)O,,MIC,ATCC 90028,,0.06 µg/mL
CCCCc1oc2ccccc2c1C(=O)c1cc(I)c(OCCN(CC)CC)c(I)c1,broth dilution,MIC,,,>128 µg/mL
CC[C@]1(O)C[C@H]2CN(CCc3c([nH]c4ccccc34)[C@@](C(=O)OC)(c3cc4c(cc3OC)N(C=O)[C@H]3[C@@](O)(C(=O)OC)[C@H](OC(C)=O)[C@]5(CC)C=CCN6CC[C@]43[C@@H]65)C2)C1,,MIC,,,500–1500 µg/mL
CO[C@H]1C[C@H](O[C@H]2CC[C@@]3(C)C(=CC[C@H]4C5=CC(=O)[C@@H]6[C@@H](C)OC(=O)[C@]56CC[C@@H]43)C2)O[C@H](C)[C@H]1O[C@H]1C[C@H](OC)[C@H](O[C@H]2C[C@H](OC)[C@H](O[C@@H]3C[C@@H](OC)[C@@H](O)[C@H](C)O3)[C@@H](C)O2)[C@@H](C)O1,broth dilution / turbidity,MIC,ATCC 2091,,>100 µg/mL
N#CC1=C(N)N(c2nc(-c3ccccc3)cs2)C2=C(C(=O)CCC2)C1c1cc2cc(Cl)ccc2nc1F,broth dilution,MIC,MTCC 227,,1000 µg/mL
Cc1c(N)nc([C@H](CC(N)=O)NC[C@H](N)C(N)=O)nc1C(=O)N[C@H](C(=O)N[C@H](C)[C@@H](O)[C@H](C)C(=O)N[C@H](C(=O)NCCc1nc(-c2nc(C(=O)NCCC[S+](C)C)cs2)cs1)[C@@H](C)O)C(O[C@@H]1O[C@@H](CO)[C@@H](O)[C@H](O)[C@@H]1O[C@H]1O[C@H](CO)[C@@H](O)[C@H](OC(N)=O)[C@@H]1O)c1cnc[nH]1,,MIC,,,500–1500 µg/mL
O=[N+]([O-])Sc1ccc2c(c1)-c1nn[se]c1CC2,,MIC,,,12.5 µg/mL
COc1c(CC=C(C)C)c(O)cc2occ(-c3ccc4c(c3)OCO4)c(=O)c12,broth dilution,MIC,ATCC 2091,,50 µg/mL
CCOC(=O)C1C(c2ccccc2)CC(c2ccc(OC)cc2)=CC12NCCN2,,MIC,,,12.5 µg/mL
CC(C)=CCC/C(C)=C/CC/C(C)=C/CO,XTT,MIC,ATCC 90028,biofilm,500 µg/mL
CC(C)=CCC/C(C)=C/C=O,broth dilution,MIC99.9,ATCC 90028,,1000 µg/mL
COc1cc2oc(-c3ccccc3)c(OC)c(=O)c2c(OC)c1OC,,MIC,,,500 µg/mL
CC(=O)N1CCN(c2ccc(OC[C@H]3CO[C@](Cn4ccnc4)(c4ccc(Cl)cc4Cl)O3)cc2)CC1,agar,MIC,,,0.02 µM
CN(Cc1cnc2nc(N)nc(N)c2n1)c1ccc(C(=O)N[C@@H](CCC(=O)O)C(=O)O)cc1,,MIC,,,500–1500 µg/mL
O=C(O)/C=C/c1ccccc1,XTT,MIC,ATCC 90028,biofilm,4000 µg/mL
O=[N+]([O-])c1cnc(/C=C/c2ccccn2)s1,,MIC,E-3,,31 µg/mL
C[C@H]1[C@H](O)[C@@H](C)/C=C/C=C/C=C/C=C/C=C/C=C/C=C/[C@H](O[C@@H]2O[C@H](C)[C@@H](O)[C@H](N)[C@@H]2O)C[C@@H]2O[C@](O)(C[C@@H](O)C[C@@H](O)CC[C@H](O)[C@@H](O)C[C@@H](O)CC(=O)O[C@H]1C)C[C@H](O)[C@H]2C(=O)O,MTT,MIC,ATCC 90028,,3 µg/mL
O=C(O)c1ccc[nH]c1=S,,MIC,MTCC 183,,590 µg/mL
CCOC(=O)C1C(c2ccc(OC)cc2)CC(c2ccccc2)=CC12NCCN2,,MIC,,,12.5 µg/mL

The last 7 rows once more:

{"smiles": "CC(=O)N1CCN(c2ccc(OC[C@H]3CO[C@](Cn4ccnc4)(c4ccc(Cl)cc4Cl)O3)cc2)CC1", "read by": "agar", "measure": "MIC", "result": "0.02 µM"}
{"smiles": "CN(Cc1cnc2nc(N)nc(N)c2n1)c1ccc(C(=O)N[C@@H](CCC(=O)O)C(=O)O)cc1", "measure": "MIC", "result": "500–1500 µg/mL"}
{"smiles": "O=C(O)/C=C/c1ccccc1", "read by": "XTT", "measure": "MIC", "strain": "ATCC 90028", "conditions": "biofilm", "result": "4000 µg/mL"}
{"smiles": "O=[N+]([O-])c1cnc(/C=C/c2ccccn2)s1", "measure": "MIC", "strain": "E-3", "result": "31 µg/mL"}
{"smiles": "C[C@H]1[C@H](O)[C@@H](C)/C=C/C=C/C=C/C=C/C=C/C=C/C=C/[C@H](O[C@@H]2O[C@H](C)[C@@H](O)[C@H](N)[C@@H]2O)C[C@@H]2O[C@](O)(C[C@@H](O)C[C@@H](O)CC[C@H](O)[C@@H](O)C[C@@H](O)CC(=O)O[C@H]1C)C[C@H](O)[C@H]2C(=O)O", "read by": "MTT", "measure": "MIC", "strain": "ATCC 90028", "result": "3 µg/mL"}
{"smiles": "O=C(O)c1ccc[nH]c1=S", "measure": "MIC", "strain": "MTCC 183", "result": "590 µg/mL"}
{"smiles": "CCOC(=O)C1C(c2ccc(OC)cc2)CC(c2ccccc2)=CC12NCCN2", "measure": "MIC", "result": "12.5 µg/mL"}

Rows are shuffled and stem from different studies. Blank or dashed fields: not listed here. a–b is a range or a potency band. ECn: concentration that inhibits the pathogen or its effect by n%.